Measured values from publication PMC5408207, “Differences in Ribosome Binding and Sarcin/Ricin Loop Depurination by Shiga and Ricin Holotoxins” (2017).

Biological target: Shiga toxin 2 (Stx2) holotoxin (E. coli)

For Yeast monomeric ribosomes, the binding level, percent higher than on Stx1, at 2.5 nM ribosomes was 90% and the binding level, percent higher than on Stx1, at 40 nM ribosomes was 66%.
